From publication PMC11268423 (Science Advances, 2024)

Tests used:
[1] = system: P-gp [P-glycoprotein; MDR1 (multidrug resistance 1)]; settings: cited from earlier work
A173V+T304I mutant virus = test: Viral passaging in the presence of nirmatrelvir (scheme 4) in VeroE6-Pgp-KO cells; settings: nirmatrelvir 7.3 μM (50×EC50), scheme 4, two passages

SMILES: CC(C)(C)[C@H](NC(=O)C(F)(F)F)C(=O)N1C[C@H]2[C@@H]([C@H]1C(=O)N[C@H](C#N)C[C@@H]1CCNC1=O)C2(C)C [Nirmatrelvir]
- P-gp efflux pump substrate [1]: substrate of the efflux pump P-gp
- virus induced CPE or viral RNA (A173V+T304I mutant virus): no virus induced CPE or viral RNA could be detected
